This passage reports AC50 results from PubChem BioAssay AID540271 (Broad Institute, 2011).

For this assay, the system named is S. cerevisiae expressing PfHSP40, growth rescue, plate reader. Nature of the assay: S cerevisiae expressing PfHSP40, growth rescue, cherry pick dose confirmatory, plate reader (AID 540271).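 Note: yeast growth read after three days of incubation at 30 °C.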

Regarding `CC(=O)OC1C(=O)OCC23CCC4(C)OC4C2OC2CC(OC(=O)C=CC=CC(=O)OCCC1C)C3(C)C21CO1` (stereo unspecified), the AC50 was 5.82 µM.

The term AC50 denotes the concentration giving half of the maximal activity seen.
